Results of unrelated studies side by side (data: NIAID ChemDB).

Common to all: enzyme or target tests

Blank or dashed fields: not listed here.

smiles,changes,strain,read by,species,protein,measure,tested at,setting,result
Cc1cccc(C)c1OCC(=O)N[C@@H](Cc1ccccc1)[C@H](O)CN1CC[C@@H](Sc2ccncc2)C[C@H]1C(=O)NC(C)(C)C,PR-V32I,,fluorescence,HIV,Protease,fold resistance,,,15.1
Cc1cc(SC2=C(O)C[C@@](CCc3ccc(O)cc3)(C(C)C)OC2=O)c(C(C)(C)C)cc1N,,,HPLC,HIV,Protease,inhibition,10 µM,,5%
O=c1ccc2cc(O[C@@H]3O[C@H](CO)[C@@H](O)[C@H](O)[C@H]3O)c(O)cc2o1,,,ELISA,HIV-1,gp41,inhibition,50 µg/mL,,5%
CC[C@H]1C=CCC[C@@]2(C[C@@H]3CC[C@@H]4[C@H](C(=O)OC/C=C/c5ccccc5)[C@]5(CCC[C@@H](C)O5)NC(=[N+]34)N2)O1,,NL4-3,ELISA,HIV-1,Nef,inhibition,5 µM,,78.1%
Cc1cc(SC2=C(O)C[C@@](CCc3ccc(O)cc3)(C(C)C)OC2=O)c(C(C)(C)C)cc1N,PR-V32I,,,HIV,Protease,fold resistance,,,6
CC(C)C[C@H](NC(=O)[C@H](C)NC(=O)C[C@H](O)[C@H](CC(C)C)NC(=O)[C@@H](NC(=O)[C@@H](NC(=O)C(C)O)C(C)C)C(C)C)[C@@H](O)CC(=O)O,,,HPLC,HIV-2,Protease,IC50,,pH 7.0,1.5 µM
Cc1cn([C@@H]2O[C@H](CO[Si](C)(C)C(C)(C)C)C3(OS(=O)(=O)C=C3N)[C@H]2O[Si](C)(C)C(C)(C)C)c(=O)n(C)c1=O,RT-N137T,,nucleotide incorporation / radiometric,HIV,Reverse transcriptase,fold resistance,,,0.19
CNC(=O)CN1[C@H](COc2ccccc2)[C@H](O)[C@@H](O)[C@@H](COc2ccccc2)N(CC(=O)NC)S1(=O)=O,PR-I84V,,,HIV-1,Protease,fold resistance,,,3.32
CC[C@H]1C(=O)Nc2ccc(F)cc2N1C(=O)OC(C)C,RT-N137A,,nucleotide incorporation / radiometric,HIV,Reverse transcriptase,IC50,,,0.01 µM
COc1ccc2c(c1)N(C(=O)OC(C)C)[C@@H](CSC)C(=S)N2,RT-D67N K70R T215F K219Q L100I,,RT activity,HIV,Reverse transcriptase,IC50,,,0.013 µg/mL
CC1(C)OC(=O)/C(=C/C(=O)c2cn(Cc3cc(F)ccc3F)c3ccc(F)cc23)O1,G140S,,strand transfer / fluorescence,HIV-1,Integrase,fold resistance,,,1
CC[C@H]1C=CCC[C@@]2(C[C@@H]3CC[C@@H]4[C@H](C(=O)OCc5ccccc5)[C@]5(CCC[C@@H](C)O5)NC(=[N+]34)N2)O1,,NL4-3,ELISA,HIV-1,Nef,inhibition,5 µM,,79.8%
CO[P@](=O)(c1cc(C)cc(/C=C/C#N)c1)c1c(C(N)=O)[nH]c2ccc(Cl)c(F)c12,Y181C/K103,,,HIV,Reverse transcriptase,IC50,,,1.411 µM
CC[C@H]1C=CCC[C@@]2(C[C@@H]3CC[C@H]4[C@H](C(=O)OCCCCCCCCCCCCCCCC(=O)N(CCC[NH3+])C[C@@H](O)CC[NH3+])[C@@]5(CCC[C@@H](C)O5)NC(=[N+]34)N2)O1,,NL4-3,ELISA,HIV-1,Nef,inhibition,5 µM,,83.9%
Cc1cn([C@H]2C=C[C@@H](COP(=O)(O)OP(=O)(O)OP(=O)(O)O)O2)c(=O)[nH]c1=O,RT-I132A,,nucleotide incorporation / radiometric,HIV-1,Reverse transcriptase,fold resistance,,,0.7
CCOC(=O)C(C(=O)OCC)c1cn(Cc2cc(F)ccc2F)c2ccc(F)cc12,Y143R,,strand transfer / fluorescence,HIV-1,Integrase,fold resistance,,,1
CNC(=O)[C@@H](NC(=O)[C@H](OCc1ccccc1)[C@H](O)[C@@H](O)[C@@H](OCc1ccccc1)C(=O)N[C@H]1c2ccccc2C[C@H]1O)C(C)C,PR-V82A I84V L90M,,,HIV,Protease,Ki,,,0.0021 µM
O=C(/C=C/c1ccc(O)c(O)c1)O[C@H]1[C@H](O)[C@@H](O)[C@H](OCCc2ccc(O)c(O)c2)O[C@@H]1CO,,,ELISA,HIV-1,gp41,IC50,,,>50 µg/mL
O=C(O)C(=O)/C=C(\O)c1cn(Cc2ccc(F)cc2)c2ccc(Br)cc12,Y143R,,strand transfer / fluorescence,HIV-1,Integrase,fold resistance,,,1.8
CCCCCCCCC[C@@H]1C[C@@H]2CC[C@H]3C(C(=O)OC(C)(C)C)=C(C)NC(=[N+]23)N1,,NL4-3,ELISA,HIV-1,Nef,inhibition,5 µM,,96.5%
CNC(=O)c1cccc(CN2[C@H](COc3ccccc3)[C@H](O)[C@@H](O)[C@@H](COc3ccccc3)N(Cc3cccc(C(=O)NC)c3)S2(=O)=O)c1,PR-I84V,,,HIV-1,Protease,fold resistance,,,14.4
O=C(O)C(=O)/C=C(\O)c1cn(Cc2cc(F)ccc2F)c2ccc(Br)cc12,G140S,,strand transfer / fluorescence,HIV-1,Integrase,fold resistance,,,0.8
CC(C)[C@H](NC(=O)c1ccc2ccccc2n1)C(=O)N[C@@H](Cc1ccccc1)[C@H](O)CN1CC[C@@H](SCc2cccnc2)C[C@H]1C(=O)NC(C)(C)C,PR-V32I M46I A71V I84A,,fluorescence,HIV,Protease,Ki,,,0.02017 µM
Cc1cn([C@@H]2O[C@H](CO[Si](C)(C)C(C)(C)C)[C@@]3(OS(=O)(=O)C=C3N)[C@H]2O[Si](C)(C)C(C)(C)C)c(=O)[nH]c1=O,RT-N137K,,nucleotide incorporation / radiometric,HIV,Reverse transcriptase,fold resistance,,,1.3
COc1cc2ccc(=O)oc2c(O[C@@H]2O[C@H](CO)[C@@H](O)[C@H](O)[C@H]2O)c1O,,,ELISA,HIV-1,gp41,inhibition,50 µg/mL,,1%
CC1(C)OC(=O)/C(=C/C(=O)c2cn(Cc3cc(F)ccc3F)c3ccc(Br)cc23)O1,Y143R,,strand transfer / fluorescence,HIV-1,Integrase,fold resistance,,,1
c1ccc(C2SCc3nc4ccccc4n32)cc1,RT-Y181I Y188L,,,HIV,Reverse transcriptase,IC50,,,>50 µM
O=c1ccc2cc(O)c(O)cc2o1,,,ELISA,HIV-1,gp41,inhibition,50 µg/mL,,31%

Repeating the final 2 entries:

c1ccc(C2SCc3nc4ccccc4n32)cc1 ; changes: RT-Y181I Y188L ; species: HIV ; protein: Reverse transcriptase ; measure: IC50 ; result: >50 µM
O=c1ccc2cc(O)c(O)cc2o1 ; read by: ELISA ; species: HIV-1 ; protein: gp41 ; measure: inhibition ; tested at: 50 µg/mL ; result: 31%

Fold resistance has wild type as its base. Lines come from different laboratories, so protocols vary. Inhibition is in % at the dose shown (toxicity tests: loss of growth or viability). ICn: concentration for n% inhibition.